Results from cells or extracts need not show a direct contact. For some of these results: Where a protein sequence is shown, tags need not be part of it. For some of these results: Construct, isoform or probe ends are uncertain for at least one entry.
Experiments:
Assay in all cases: EMSA
SATB1 = target: T1, SATB1 (UniProt Q01826); details: label: radiolabel
T1 sequence (looked up, limits assumed): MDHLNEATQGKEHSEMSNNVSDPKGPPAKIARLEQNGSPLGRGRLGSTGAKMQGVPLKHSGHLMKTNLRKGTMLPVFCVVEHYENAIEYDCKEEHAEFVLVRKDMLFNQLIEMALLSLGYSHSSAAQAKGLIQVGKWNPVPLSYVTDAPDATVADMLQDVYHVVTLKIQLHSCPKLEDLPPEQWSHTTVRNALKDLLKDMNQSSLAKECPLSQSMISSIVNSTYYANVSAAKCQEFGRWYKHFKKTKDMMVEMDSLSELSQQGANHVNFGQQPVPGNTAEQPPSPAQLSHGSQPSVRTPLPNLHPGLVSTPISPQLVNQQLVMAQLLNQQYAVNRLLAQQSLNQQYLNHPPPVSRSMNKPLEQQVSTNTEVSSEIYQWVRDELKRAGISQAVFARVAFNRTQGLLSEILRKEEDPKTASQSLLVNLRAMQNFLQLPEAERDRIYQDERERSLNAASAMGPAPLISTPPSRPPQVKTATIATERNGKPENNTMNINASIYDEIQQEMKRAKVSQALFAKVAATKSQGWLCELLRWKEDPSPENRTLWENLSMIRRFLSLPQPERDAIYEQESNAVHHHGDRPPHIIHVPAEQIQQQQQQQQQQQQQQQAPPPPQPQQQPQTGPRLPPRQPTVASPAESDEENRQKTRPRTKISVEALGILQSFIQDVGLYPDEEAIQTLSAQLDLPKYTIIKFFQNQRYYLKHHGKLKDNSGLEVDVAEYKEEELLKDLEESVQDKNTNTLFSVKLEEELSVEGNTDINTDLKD

Chains of the proteins cited; added tags and fusions are not shown. Lines headed by an entry give the natural chain unless they say otherwise; changes in a name come on top.
UniProt P52945: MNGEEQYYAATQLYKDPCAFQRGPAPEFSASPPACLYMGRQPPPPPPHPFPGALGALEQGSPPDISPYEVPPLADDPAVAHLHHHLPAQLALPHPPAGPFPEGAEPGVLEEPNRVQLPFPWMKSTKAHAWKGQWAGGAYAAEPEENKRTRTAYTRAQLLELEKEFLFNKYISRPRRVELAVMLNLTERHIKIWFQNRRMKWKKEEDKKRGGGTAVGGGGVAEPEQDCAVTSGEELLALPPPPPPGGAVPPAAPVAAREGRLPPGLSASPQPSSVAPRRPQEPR
UniProt P39880: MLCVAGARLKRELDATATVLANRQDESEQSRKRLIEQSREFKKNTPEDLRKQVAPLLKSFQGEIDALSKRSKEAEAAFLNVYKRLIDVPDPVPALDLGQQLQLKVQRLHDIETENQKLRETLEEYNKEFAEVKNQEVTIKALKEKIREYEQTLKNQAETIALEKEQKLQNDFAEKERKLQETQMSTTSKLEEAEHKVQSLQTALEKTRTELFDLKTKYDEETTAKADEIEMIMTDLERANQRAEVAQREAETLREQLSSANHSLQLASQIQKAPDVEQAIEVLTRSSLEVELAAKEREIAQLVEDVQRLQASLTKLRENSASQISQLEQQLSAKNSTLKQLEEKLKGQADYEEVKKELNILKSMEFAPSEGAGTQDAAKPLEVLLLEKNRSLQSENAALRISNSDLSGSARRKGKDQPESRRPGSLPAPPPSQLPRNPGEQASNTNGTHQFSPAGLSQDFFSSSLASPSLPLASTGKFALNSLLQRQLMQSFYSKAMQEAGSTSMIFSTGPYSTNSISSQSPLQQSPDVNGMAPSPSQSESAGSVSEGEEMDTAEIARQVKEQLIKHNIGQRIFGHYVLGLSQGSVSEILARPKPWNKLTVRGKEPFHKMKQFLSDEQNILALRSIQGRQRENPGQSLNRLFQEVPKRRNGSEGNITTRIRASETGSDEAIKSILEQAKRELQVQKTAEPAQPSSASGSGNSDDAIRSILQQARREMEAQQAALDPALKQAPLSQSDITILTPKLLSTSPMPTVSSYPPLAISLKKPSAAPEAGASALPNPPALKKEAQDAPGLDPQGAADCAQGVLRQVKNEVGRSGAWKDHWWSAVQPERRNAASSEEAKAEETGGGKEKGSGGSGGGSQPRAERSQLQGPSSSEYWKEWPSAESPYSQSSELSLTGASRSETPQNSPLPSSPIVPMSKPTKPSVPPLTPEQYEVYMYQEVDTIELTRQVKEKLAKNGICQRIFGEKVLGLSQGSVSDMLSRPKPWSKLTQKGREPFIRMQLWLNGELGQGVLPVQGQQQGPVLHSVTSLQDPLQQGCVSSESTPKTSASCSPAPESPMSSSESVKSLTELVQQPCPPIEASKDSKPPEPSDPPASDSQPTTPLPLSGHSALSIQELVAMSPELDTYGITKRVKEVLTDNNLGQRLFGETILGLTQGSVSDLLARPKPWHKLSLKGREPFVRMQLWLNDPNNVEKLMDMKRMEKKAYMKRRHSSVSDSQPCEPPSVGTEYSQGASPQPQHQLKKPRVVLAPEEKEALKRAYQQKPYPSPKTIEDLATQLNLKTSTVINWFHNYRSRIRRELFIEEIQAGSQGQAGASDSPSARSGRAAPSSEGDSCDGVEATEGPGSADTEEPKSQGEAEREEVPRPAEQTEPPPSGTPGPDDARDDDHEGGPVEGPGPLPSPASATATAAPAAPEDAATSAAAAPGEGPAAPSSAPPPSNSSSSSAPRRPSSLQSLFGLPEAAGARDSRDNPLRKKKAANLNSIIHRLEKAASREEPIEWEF

PDX1 (Homo sapiens) = PDX1 (Homo sapiens) (UniProt P52945); details: protein in an extract, protein details: endogenous, 293 or THP-1 nuclear extract, label: radiolabel
[1] = target: CDP (CUX1) (Homo sapiens) (UniProt P39880); details: protein in an extract, protein details: endogenous, 293 or THP-1 nuclear extract, label: radiolabel
[2] = 293 complex C1 disrupted by antibody, in THP-1 only after PMA

Measured: binding result

GGCATTGATTATTGACTAGTTATTAATAGTAATCAATTACGGGGTCATTAGTTCA (double strand) [CMV-593 to -549]
binds: SATB1; 293 complexes C1 and C2 disrupted by antibody, THP-1 S1 and S2 supershifted, protein in an extract, protein details: endogenous, 293 or THP-1 nuclear extract | SATB1; two complexes, likely monomer and homodimer, protein translated in vitro, protein details: pCITE-SATB1, TNT reticulocyte lysate | PDX1 (Homo sapiens); [2] | [1]; [2]

TAAATCAATATTGGCTATTGGCCATTGCATACGTTGTATCTATATCATAATATGTACA (double strand) [CMV-687 to -640]
binds: SATB1; 293 C3, THP-1 M1 and M2, protein in an extract, protein details: endogenous, 293 or THP-1 nuclear extract | PDX1 (Homo sapiens); 293 C3, THP-1 M1 and M2 | [1]; 293 C3, THP-1 M1 and M2

TTGAATCAATATTGGCCATTAGCCATATTATTCATTGGTTATATAGCATAAATCAATA (double strand) [CMV-735 to -688]
binds: SATB1; 293 C1* and C2*, THP-1 S1* and S2*, protein in an extract, protein details: endogenous, 293 or THP-1 nuclear extract | PDX1 (Homo sapiens); 293 C1* supershift, PMA-treated THP-1 | [1]; 293 C1*, PMA-treated THP-1
